# Sequence variants of PSTVd loop 6 after infection

PSTVd intermediate strain, loop 6: wild type UGACCGCGAG, pool pattern UNNNCGNNNG; upper and lower strand joined, each 5' to 3', the first 5 letters being the upper strand, closing pairs included.

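Three N. benthamiana plants were inoculated with the whole mutant pool. Samples came from the inoculated region at 5 days, the leaf margin at 10 and upper systemic leaves at 12.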

Values are reads per thousand in the sample; higher means more abundant, 0 means not found.
Each value is the mean of three plants.
"Pool" is the share in the plasmid pool used as inoculum, on the same scale.
The inoculated region was read from the minus strand, the other sites from the plus strand.
IR is the inoculated region, LM the leaf margin, Sys the systemic leaves.

UAAACGCAGG (pool 0.105) read IR 0.659; LM 0.0460; Sys 0.0467.
UCAGCGUAUG (pool 0.209) read IR 0.0654; LM 0.147; Sys 0.
UAGUCGAAAG (pool 0.170) read IR 0.0784; LM 0.0155; Sys 0.
UAGUCGUGCG (pool 0.105) read IR 0.101; LM 0.0247; Sys 0.
UCCACGUAUG (pool 0.209) read IR 0.0589; LM 0.109; Sys 0.
UCAGCGUUGG (pool 0.680) read IR 0.101; LM 0.00773; Sys 0.0136.
UUGACGUGUG (pool 0.301) read IR 0.125; LM 0; Sys 0.
UAGCCGCAGG (pool 0.131) read IR 0.131; LM 0.0353; Sys 0.
UUCUCGCGCG (pool 0.261) read IR 0.119; LM 0; Sys 0.00684.
UAUACGCUUG (pool 0.366) read IR 0.0768; LM 0.00920; Sys 0.
UAAACGUAGG (pool 0.144) read IR 0.108; LM 0; Sys 0.
UCGUCGGGCG (pool 0.131) read IR 0.0645; LM 0.00920; Sys 0.
UUGCCGAGUG (pool 0.235) read IR 0.0898; LM 0.00920; Sys 0.00599.
UGUCCGACAG (pool 0.196) read IR 0.130; LM 0; Sys 0.
UACACGCCAG (pool 0.131) read IR 0.578; LM 0.111; Sys 0.
UUGCCGUCUG (pool 0.824) read IR 0.120; LM 0.0512; Sys 0.
UGUCCGACCG (pool 0.196) read IR 0.107; LM 0; Sys 0.
UAUGCGUACG (pool 0.196) read IR 0.0838; LM 0; Sys 0.
UUGACGUGAG (pool 0.183) read IR 0.648; LM 0.104; Sys 0.
UUGUCGCCUG (pool 0.261) read IR 0.130; LM 0.0590; Sys 0.
UCCUCGUCUG (pool 0.248) read IR 0.108; LM 0; Sys 0.00673.
UAUUCGUAGG (pool 0.379) read IR 0.0708; LM 0.00773; Sys 0.
UAGUCGAUUG (pool 0.288) read IR 0.102; LM 0.00773; Sys 0.
UUCUCGCGAU (pool 0.0261) read IR 0.0846; LM 0.0184; Sys 0.
UGUGCGUGUG (pool 0.301) read IR 0.113; LM 0.00773; Sys 0.
UAAGCGGGGU (pool 0.0131) read IR 0; LM 0; Sys 0.
UGCUCGGACC (pool 0.0131) read IR 0; LM 0; Sys 0.
UUAUCGCCCG (pool 0.288) read IR 0.108; LM 0.00920; Sys 0.
UUACCGUGGG (pool 0.170) read IR 0.108; LM 0.0353; Sys 0.
UCCUCGUGUG (pool 0.248) read IR 0.108; LM 0; Sys 0.

Excerpt, the final 4 entries:

{"sequence": "UGCUCGGACC", "pool": "0.0131", "IR": 0, "LM": 0, "Sys": 0}
{"sequence": "UUAUCGCCCG", "pool": "0.288", "IR": 0.108, "LM": 0.00920, "Sys": 0}
{"sequence": "UUACCGUGGG", "pool": "0.170", "IR": 0.108, "LM": 0.0353, "Sys": 0}
{"sequence": "UCCUCGUGUG", "pool": "0.248", "IR": 0.108, "LM": 0, "Sys": 0}

The authors trace changes outside the varied positions to PCR and sequencing errors or to mutation in the plant; presence does not show that a variant is infectious alone.
Samples held 36,220 to 57,551 reads, so the smallest values rest on one or two reads.
Wild type was 20.7 per thousand in the pool and the most common sequence in every sample (inoculated region 195, 198, 203; leaf margin 629, 591, 734; systemic leaves 942, 870, 868).

Values reported by Wu et al. 2024 (doi:10.1371/journal.ppat.1012142).